{"source": "the supplement of paper PMC12637763", "binders": {"B1": {"name": "HIV-1 Env, rebound clone, antibody arm (protein)", "chain": "MRVMGIRKNWQGLWKWGMMLLGMLMICNATEQLWVTVYYGVPVWKEATTTLFCASDAKSYKTEAHNIWATHACVPTDPNPQEINLINVTENFNMWKNDMVEQMHEDIISLWDQSLKPCVKLTPLCVTLQCTNITITINGTDRNLTAEEREEIRNCSYNVTTELKDKKEQIYSLFYRLDITPINENQGTESRNTITKYKLINCNTSVITQACPKINFDPIPIHYCAPAGFAILKCKDKGFNGTGPCKNVSSVQCTHGIKPVVSTQLLLNGSLAEEEIVIRSENITNNAKNIIVQLVTPVNISCVRPNNNTRKSIRIGPGQSFYANNAIIGGIRQAHCNVSRSEWNNTLQKVVKKLGGLLNKTTIDFKPPSGGDPEIIMHTFNCAGEFFYCNTSGLFNSTWNTTTWNNNSTQVSNGTDSNITLQCRIKQIINMWQGVGKAMYAPPIEGMITCISNITGLILTRDGARNDRQNETLRPAGGDMRDNWRSELYKYKVVRLEPLGLAPTKARRRVVEREKRAIGLGALFLGFLGAAGSTMGAASLTLTVQARQLLSGIVQQQNNLLRAIEAQQHLLQLTVWGIKQLQARVLAVENYLKDQQLLSIWGCSGKHICTTNVPWNTSWSNKSLSQIWDNMTWNDWEREINNYTGLIYSLIEESQIQQDKNEKELLELDKWASLWNWFKITKWLWYIKIFIMIVGGLIGLRIIFAVLSVVNRVRQGYSPLSFQTLLPASRGPDRPEGIEEEGGEQGRGRSIRLVNGFSALIWDDLRNLILFLYHRLRDLILIATRTVEILGHRGWEAIKYLWNLLLYWIQELKNSAISLYDTLAITVAGWTDRIIEVGQRIGRAFLHIPRRIRQGAERALI"}, "B2": {"name": "HIV-1 Env, rebound clone, antibody arm (protein)", "chain": "B1 chain with T134N, T193N, K198R, R468N"}, "B3": {"name": "HIV-1 Env, rebound clone, antibody arm (protein)", "chain": "MRVMGIRKNWQGLWKWGMMLLGMLMICNATEQLWVTVYYGVPVWKEATTTLFCASDAKSYKTEAHNIWATHACVPTDPNPQEINLINVTENFNMWKNDMVEQMHEDIISLWDQSLKPCVKLTPLCVTLQCTNITINGTDRNLTAEEREEIRNCSYNVTTELKDKKEQIYSLFYRLDITPINENQGTESRNNITKYRLINCNTSVITQACPKINFDPIPIHYCAPAGFAILKCKDKGFNGTGPCKNVSSVQCTHGIKPVVSTQLLLNGSLAEEEIVIRSENITNNAKNIIVQLVTPVNISCVRPNNNTRKSIRIGPGQSFYANNAIIGGIRQAHCNVIRSEWNNTLQKVVKKLGGLLNKTTIDFKPPSGGDPEIIMHTFNCAGEFFYCNTSGLFNSTWNTTTWNNNSTQVSNGTDSNITLQCRIKQIINMWQGVGKAMYAPPIEGMITCISNITGLILTRDGGASNDSQNETLRPAGGDMRDNWRSELYKYKVVRLEPLGLAPTKARRRVVEREKRAIGLGALFLGFLGAAGSTMGAASLTLTVQARQLLSGIVQQQNNLLRAIEAQQHLLQLTVWGIKQLQARVLAVENYLKDQQLLSIWGCSGKHICTTNVPWNTSWSNKSLSQIWDNMTWNDWEREINNYTGLIYSLIEESQIQQDKNEKELLELDKWASLWNWFKITKWLWYIKIFIMIVGGLIGLRIIFAVLSVVNRVRQGYSPLSFQTLLPASRGPDRPEGIEEEGGEQGRGRSIRLVNGFSALIWDDLRNLILFLYHRLRDLILIATRTVEILGHRGWEAIKYLWNLLLYWIQELKNSAISLYDTLAIAVAGWTDRIIEVGQRIGRAVFHIPRRIRQGAERALI"}}, "note": "Changes are numbered by the printed parent chain. This is one part of the list. Env chains of viruses from a treatment-interruption trial, translated from the printed DNA. IC50 / IC80 of two broadly neutralizing antibodies; lower = more sensitive virus; >50 µg/ml means not reached and <0.001 µg/ml is below the lowest dose. No active / inactive call.", "data": [{"molecular_target": "antibody 10-1074", "assay": "neutralization IC50; higher = virus less sensitive to the antibody", "experimental": "(§1)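 Pseudovirus bearing the Env chain mixed with antibody, from 50 µg/ml in fivefold dilutions, on TZM-bl reporter cells, in duplicate.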", "units": {"neutralization IC50": "µg/mL"}, "values": [{"binder": "B1", "neutralization IC50": "> 50"}, {"binder": "B2", "neutralization IC50": "> 50"}, {"binder": "B3", "neutralization IC50": "> 50"}]}, {"molecular_target": "antibody 3BNC117", "assay": "neutralization IC50; higher = virus less sensitive to the antibody", "experimental": "as §1", "units": {"neutralization IC50": "µg/mL"}, "values": [{"binder": "B1", "neutralization IC50": "> 50"}, {"binder": "B2", "neutralization IC50": 1.56}, {"binder": "B3", "neutralization IC50": 0.042}]}, {"molecular_target": "antibody 10-1074", "assay": "neutralization IC80; higher = virus less sensitive to the antibody", "experimental": "as §1", "units": {"neutralization IC80": "µg/mL"}, "values": [{"binder": "B1", "neutralization IC80": "> 50"}, {"binder": "B2", "neutralization IC80": "> 50"}, {"binder": "B3", "neutralization IC80": "> 50"}]}, {"molecular_target": "antibody 3BNC117", "assay": "neutralization IC80; higher = virus less sensitive to the antibody", "experimental": "as §1", "units": {"neutralization IC80": "µg/mL"}, "values": [{"binder": "B1", "neutralization IC80": "> 50"}, {"binder": "B2", "neutralization IC80": 19.6}, {"binder": "B3", "neutralization IC80": 0.294}]}]}
